# The list shows a part of the results, in another mix than the full data. Activity calls are given as the source filed them. Cut-off read from the data, not from the text of the source: active = inhibition above about 52%; inactive = the rest.
# Experiment: inhibition of PrP 5' UTR reporter expression (AID 488862); note: 0 = median of the neutral control wells
# Details: cell-based PrP 5' UTR mRNA reporter, plate reader; stronger effect = higher value; concentration not given here
row,SMILES,inhibition
1,COC(=O)C1(C)COP(=O)(NCc2ccccc2)OC1 (configuration not stated),inactive: -10.9%
2,CC(C)(C)C(=O)NC(Sc1ccccc1)C(Cl)(Cl)Cl (configuration not stated),inactive: -23.8%
3,CC(C)c1ccc(OP(C)(=O)Nc2ccc(SC(F)(F)F)cc2)cc1 (configuration not stated),inactive: -17.2%
4,CCc1cc(O)c([N+](=O)[O-])c(C)c1[N+](=O)[O-],inactive: -23.4%
5,CP(=O)(Nc1ccccc1F)Oc1ccccc1 (configuration not stated),inactive: -7.89%
6,O=P1(Nc2nc3ccc(Cl)cc3s2)COc2ccccc2O1 (configuration not stated),inactive: -22.7%
7,CCOc1ccc(C2=NCC(CBr)S2)cc1 (configuration not stated),inactive: -11.9%
8,CCc1ccc(OP(C)(=O)O)cc1,inactive: -6.16%
9,CP(=O)(Nc1ccccn1)Oc1ccccc1 (configuration not stated),inactive: -10.4%
10,COc1ccccc1OP(C)(=O)Nc1ccc(C)cc1C (configuration not stated),inactive: -19.1%
11,Oc1ccccc1CNc1ccccn1,inactive: -6.99%
12,O=C(NC(Sc1ccncn1)C(Cl)(Cl)Cl)c1ccccc1 (configuration not stated),inactive: 1.98%
13,O=[N+]([O-])c1cc([N+](=O)[O-])c(Nc2ccccn2)c([N+](=O)[O-])c1,inactive: -14%
14,CC(C)CC(=O)NC(Sc1ccc(Cl)cc1)C(Cl)(Cl)Cl (configuration not stated),inactive: -17%
15,Nc1cc(N)c2nonc2c1[N+](=O)[O-],inactive: -17.9%
16,Cc1c(NP(C)(=O)Oc2ccc(C(C)C)cc2)c(=O)n(-c2ccccc2)n1C (configuration not stated),inactive: -14.8%
17,CN(C)CCOC(=O)C(O)(c1ccccc1)C1CCCC1 (configuration not stated),inactive: -22.8%
18,Clc1ccc(Cl)c(NC2=NCC(CBr)S2)c1 (configuration not stated),inactive: -15.5%
19,CN1CCCC(OC(=O)C(c2ccccc2)c2ccccc2)C1 (configuration not stated),inactive: -4.98%
20,COc1ccc(OP(C)(=O)Nc2ccccn2)cc1 (configuration not stated),inactive: -5.59%
21,COc1ccccc1OP(=O)(Nc1ccc(C)cn1)Oc1ccccc1OC,inactive: -17.7%
22,COc1ccccc1OP(C)(=O)Nc1ccc(Br)cc1 (configuration not stated),inactive: -17.8%
23,CN(C(=O)Cc1ccc(Cl)c(Cl)c1)[C@H]1CCCC[C@H]1N1CCCC1,inactive: -7.49%
24,Cc1ccc(N/C(=N/P(=O)(N2CCOCC2)N2CCOCC2)N2CCOCC2)cc1,inactive: -14.2%

row,SMILES,inhibition
1,NC(=O)c1cc([N+](=O)[O-])cc([N+](=O)[O-])c1N,inactive: -8.68%
2,Nc1cccc2ccc([As](=O)(O)O)cc12,inactive: -6.3%
3,CP(=O)(OCCOc1ccccc1)OCCOc1ccccc1,inactive: -39.1%
4,CCCCCCCCCCCCCCCC1C[N+](C)(C)CCOP(C)(=O)O1 (configuration not stated),inactive: -9.29%
5,CP(=O)(Nc1ccc(Cl)cc1Cl)Oc1ccccc1 (configuration not stated),inactive: -31.8%
6,CCN(N=Nc1nonc1N)c1nonc1N,inactive: -5.83%
7,COc1ccc(OP(C)(=O)Nc2ccccc2Br)cc1 (configuration not stated),inactive: -11.2%
8,CCOP(=O)(Nc1ccccc1)OCC,inactive: -20.2%
9,Cc1cc(SC(NC(=O)c2ccc(F)cc2)C(Cl)(Cl)Cl)ncn1 (configuration not stated),inactive: -4.13%
10,Cc1ccc(NP(=O)(Oc2ccccc2F)Oc2ccccc2F)nc1,inactive: -17%
11,COc1ccccc1OP(C)(=O)Nc1ccc(C)c(C)c1 (configuration not stated),inactive: -7.43%
12,O=C1C(O)=C([N+](=O)[O-])C(=O)C(O)=C1[N+](=O)[O-],inactive: -17%
13,Cc1cc(C)cc(OP(C)(=O)Nc2cccc(C(F)(F)F)c2)c1 (configuration not stated),inactive: -25.7%
14,O=P(Nc1nc2ccc(Cl)cc2s1)(c1ccccc1)c1ccccc1,inactive: 1.31%
15,O=C(O)c1ccccc1[As](=O)(O)O,inactive: 2.25%
16,CC(=O)Nc1ccc([As](=O)(O)O)cc1,inactive: 5.98%
17,CCCC1OP(N)(=O)OCC1CC (configuration not stated),inactive: 1.99%
18,O=C(O)CNc1ccc([As](=O)(O)O)cc1,inactive: -23.7%
19,O=[N+]([O-])c1cccc(NC2=NCC(CBr)S2)c1 (configuration not stated),inactive: -12.3%
20,COC(=O)C1(C)COP(=O)(Nc2ccccc2)OC1 (configuration not stated),inactive: -18.8%
21,O=[N+]([O-])c1ncn(CCn2ncnc2[N+](=O)[O-])n1,inactive: -21.6%
22,CC(C)(C)C(=O)NC(Sc1ccncn1)C(Cl)(Cl)Cl (configuration not stated),inactive: -9.15%
23,CP(=O)(OC12CC3CC(CC(C3)C1)C2)OC12CC3CC(CC(C3)C1)C2,inactive: -33.6%
24,CCOC(=O)c1ccc(NP(C)(=O)Oc2ccc(Cl)cc2)cc1 (configuration not stated),inactive: -44.8%

row,SMILES,inhibition
1,O=C(Nc1cc([As](=O)(O)O)ccc1O)c1ccccc1,inactive: -15.2%
2,O=P1(N(CCCl)CCCl)OCCCS1 (configuration not stated),inactive: -20.8%
3,CC1CCN(C(=O)Oc2c(Cl)cc(Cl)c3cccnc23)CC1,inactive: -19.7%
4,CC(C)=N/N=C(\N)N[N+](=O)[O-],inactive: -28.1%
5,CN(C)C(=O)c1c([N+](=O)[O-])cc([N+](=O)[O-])cc1[N+](=O)[O-],inactive: 2.63%
6,CN(C)C(=O)OCCc1n(C)cc[n+]1C,inactive: -20.3%
7,CCN(/C(=N/P(=O)(N1CCOCC1)N1CCOCC1)N1CCOCC1)c1ccc(OC)cc1,inactive: -9.95%
8,CP(=O)(Nc1ccc(Cl)cc1)Oc1ccc(F)cc1 (configuration not stated),inactive: -9.7%
9,Nc1ccc([As](=O)(O)c2ccc(N)cc2)cc1,inactive: 3.17%
10,CC(C)(C)c1ccc(OP(C)(=O)O)cc1,inactive: -11.9%
11,COc1ccccc1OP(C)(=O)Nc1ccccc1Br (configuration not stated),inactive: 4.7%
12,C[N+]1=C2C=CC=CC=C2SC12C([N+](=O)[O-])=CC([N+](=O)[O-])=C[C-]2[N+](=O)[O-] (configuration not stated),inactive: -27.2%
13,CP(=O)(Oc1ccccc1)N1CCOC1=O (configuration not stated),inactive: -11.4%
14,Cc1ccc(NP(=O)(Oc2ccccc2)Oc2ccccc2)nc1,inactive: -29.7%
15,O=[N+]([O-])c1cc([N+](=O)[O-])c(CCNc2ccccc2)c([N+](=O)[O-])c1,inactive: -7.98%
16,CCc1nc2c(n1)c1c(non1O)c1c2no[n+]1[O-],inactive: -17%
17,CCc1ccc(OP(C)(=O)Nc2cccnc2)cc1 (configuration not stated),inactive: 0.875%
18,COc1ccccc1OP(C)(=O)Nc1c(C)n(C)n(-c2ccccc2)c1=O (configuration not stated),inactive: -19.1%
19,CC(=O)N1C2C3N(C(C)=O)C1C1N(C(C)=O)C(C(N1C(C)=O)N3C(C)=O)N2C(C)=O,inactive: -2.85%
20,O=[N+]([O-])c1cccc2n[nH]nc12,inactive: -8.39%
21,O=C(OCCCN1CCCC1)C(O)(c1ccccc1)C1CCCCC1 (configuration not stated),inactive: -23.9%
22,CCN(CC)CC(O)COC(=O)C(O)(c1ccccc1)C1CCCCC1 (configuration not stated),inactive: -12.9%
23,COc1ccc(OP(C)(=O)Nc2ccc(Br)cc2)cc1 (configuration not stated),inactive: -15.6%
24,COc1ccc(C2=NCC(CBr)S2)cc1 (configuration not stated),inactive: -11.9%

# From PubChem BioAssay AID488862 (Broad Institute, 2010)
